PubChem BioAssay AID624099, ICCB-Longwood | 2012
Shown is one part, drawn at random, of about 21,000 reagents. Over the whole deposit, 497 (2.4%) got an active call. 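Higher z means weaker E2 silencing; only reporter increases were scored, and knock-downs that hurt cell survival may mask genuine repressor factors.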

- Screen: 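Knock-downs relieving repression by E2 of an HPV18 LCR luciferase reporter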 (primary screen)
- Cell system: human C33A cervical carcinoma cells (HPV-negative) stably expressing BPV1 E2 and an HPV18 LCR luciferase reporter
- Knock-down reagent: siRNA pool against human genes, 40 nM
- Duration: 72 h
- Measured: 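Per-well luciferase luminescence, z-scored on each plate against the plate mean and SD with control wells left out, then averaged across three replicate plates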
- Scale: mean z-score and z-score: higher = stronger reporter signal, weaker E2 silencing
- Rule for the call: 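Hit if mean z-score reaches 2 and two or more of three replicate z-scores also reach 2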

OVCH2 (GeneID 341277) showed mean z-score 2.05; z-score, replicate A = 2.13; z-score, replicate B = 1.91; z-score, replicate C = 2.09; active.
After knock-down of FCN2 (GeneID 2220) the results were mean z-score -0.72; z-score, replicate A = -0.43; z-score, replicate B = -0.74; z-score, replicate C = -0.98; inactive.
Silencing of TTLL10 (GeneID 254173) resulted in: mean z-score 0.95; z-score, replicate A = 0.87; z-score, replicate B = 0.97; z-score, replicate C = 1; inactive.
With knock-down of WDR82P1 (GeneID 728505), the record shows mean z-score -1.5; z-score, replicate A = -1.44; z-score, replicate B = -1.34; z-score, replicate C = -1.71; inactive.
After knock-down of MINAR1 (GeneID 23251), the screen gave mean z-score -0.39; z-score, replicate A = -0.5; z-score, replicate B = -0.39; z-score, replicate C = -0.27; inactive.
For RRH (GeneID 10692), the entry reads mean z-score 0.86; z-score, replicate A = 0.87; z-score, replicate B = 0.88; z-score, replicate C = 0.82; inactive.
With knock-down of LOC728114 (retired record) (GeneID 728114) the results were mean z-score -0.65; z-score, replicate A = -0.43; z-score, replicate B = -0.71; z-score, replicate C = -0.81; inactive.
After knock-down of GALNS (GeneID 2588) the results were mean z-score -0.29; z-score, replicate A = -0.06; z-score, replicate B = -0.25; z-score, replicate C = -0.56; inactive.
UTP20 (GeneID 27340) gave mean z-score -0.69; z-score, replicate A = -0.84; z-score, replicate B = -0.72; z-score, replicate C = -0.51; inactive.
Depletion of SLC41A3 (GeneID 54946) came out at: mean z-score 0.05; z-score, replicate A = 0.07; z-score, replicate B = 0.07; z-score, replicate C = 0.01; inactive.
Against IFT25 (GeneID 51668), the entry reads mean z-score -0.3; z-score, replicate A = -0.27; z-score, replicate B = -0.09; z-score, replicate C = -0.55; inactive.
For SLC67A2 (GeneID 84804), the values are mean z-score -0.14; z-score, replicate A = -0.08; z-score, replicate B = -0.42; z-score, replicate C = 0.09; inactive.
NEXN-AS1 (GeneID 374987) scored mean z-score 0.46; z-score, replicate A = 0.36; z-score, replicate B = 0.61; z-score, replicate C = 0.42; inactive.
For SUB1 (GeneID 10923) the deposit lists mean z-score -1.95; z-score, replicate A = -1.83; z-score, replicate B = -1.9; z-score, replicate C = -2.13; inactive.
After knock-down of CA10 (GeneID 56934), the record shows mean z-score 0.58; z-score, replicate A = 0.28; z-score, replicate B = 0.75; z-score, replicate C = 0.7; inactive.
DRAP1 (GeneID 10589) gave mean z-score 0.89; z-score, replicate A = 0.97; z-score, replicate B = 0.9; z-score, replicate C = 0.79; inactive.
FBLN5 (GeneID 10516) showed mean z-score 0.48; z-score, replicate A = 0.3; z-score, replicate B = 0.54; z-score, replicate C = 0.61; inactive.
Knock-down of NR1I3 (GeneID 9970) came out at: mean z-score -0.29; z-score, replicate A = -0.38; z-score, replicate B = -0.23; z-score, replicate C = -0.26; inactive.
Silencing of OR2L13 (GeneID 284521) gave: mean z-score 0.14; z-score, replicate A = 0.26; z-score, replicate B = 0.27; z-score, replicate C = -0.11; inactive.
RPP14 (GeneID 11102) scored mean z-score -0.61; z-score, replicate A = -0.91; z-score, replicate B = -0.62; z-score, replicate C = -0.29; inactive.
For PYY2 (GeneID 23615) the deposit lists mean z-score 0.21; z-score, replicate A = 0.46; z-score, replicate B = 0.36; z-score, replicate C = -0.18; inactive.
Knock-down of CPNE9 (GeneID 151835) resulted in: mean z-score 0.68; z-score, replicate A = 0.98; z-score, replicate B = 0.26; z-score, replicate C = 0.81; inactive.
Against EPB41L2 (GeneID 2037), the values are mean z-score -0.58; z-score, replicate A = -0.76; z-score, replicate B = -0.3; z-score, replicate C = -0.66; inactive.
After knock-down of CDC42SE2 (GeneID 56990) the results were mean z-score 0.55; z-score, replicate A = 0.85; z-score, replicate B = 0.55; z-score, replicate C = 0.26; inactive.
Against SORDL (retired record) (GeneID 116166), the values are mean z-score 1.02; z-score, replicate A = 1.26; z-score, replicate B = 0.68; z-score, replicate C = 1.13; inactive.
KIAA1549 (GeneID 57670) showed mean z-score 0.78; z-score, replicate A = 1.01; z-score, replicate B = 0.95; z-score, replicate C = 0.36; inactive.
With knock-down of REXO1L2P (GeneID 100288527) the results were mean z-score -0.56; z-score, replicate A = -0.75; z-score, replicate B = -0.26; z-score, replicate C = -0.65; inactive.

In a second layout: entries from further up
{"Gene":"TTLL10 (GeneID 254173)","mean z-score":0.95,"z-score, replicate A":0.87,"z-score, replicate B":0.97,"z-score, replicate C":1,"outcome":"inactive"}
{"Gene":"WDR82P1 (GeneID 728505)","mean z-score":-1.5,"z-score, replicate A":-1.44,"z-score, replicate B":-1.34,"z-score, replicate C":-1.71,"outcome":"inactive"}
